Reference: paper PMC7139904, “Structural Requirements of Benzofuran Derivatives Dehydro-δ- and Dehydro-ε-Viniferin for Antimicrobial Activity Against the Foodborne Pathogen Listeria monocytogenes” (International Journal of Molecular Sciences, 2020)

system: L. monocytogenes Scott A; assay: Minimal inhibitory concentration (MIC) and minimal bactericidal concentration (MBC), 96-well plate broth assay; assay type: cell-based, Listeria monocytogenes; details: in terms of MIC, versus compound 2

| SMILES | Change of antimicrobial activity (MIC) compared with the parent compound 2 |
| --- | --- |
| Oc1ccc(/C=C/c2cc(O)cc3occ(-c4cc(O)cc(O)c4)c23)cc1 [Compound 8] | four-fold lower activity |
| Oc1ccc(/C=C/c2cc(O)cc3occ(-c4cc(O)cc(O)c4)c23)cc1 [Compound 7] | two-fold higher potency |
| Oc1ccc(-c2oc3cc(O)ccc3c2-c2cc(O)cc(O)c2)cc1 [Compound 6] | four-fold lower activity |
